Pooled drug test results. Numbers come from NIAID ChemDB, via PubChem.

Shared fields: tests in culture; organism: HIV-1; read by: RT activity; read-out: inhibition

Conditions beyond the fields shown may differ between rows. Percent inhibition refers to the dose given; in toxicity tests it is the harm to the cells.

{"SMILES": "O=C(C(=O)N1CCN(C(=O)c2ccccc2)CC1)c1c[nH]c2cccc([N+](=O)[O-])c12", "cell line": "MT-2", "tested at": "10 µM", "strain or isolate": "BRU", "result": "88.3%"}
{"SMILES": "O=C(NCCc1ccccc1)Nc1cnccn1", "cell line": "MT-4", "tested at": "100 µg/mL", "result": "100%"}
{"SMILES": "O=C(C(=O)N1CCN(C(=O)c2ccc(F)c(Cl)c2)CC1)c1c[nH]c2ccccc12", "cell line": "MT-2", "tested at": "10 µM", "strain or isolate": "BRU", "result": "46%"}
{"SMILES": "CN1C(=O)[C@@H](Cc2ccccc2)NC1=S", "cell line": "MT-4", "tested at": "10 µg/mL", "result": "7%"}
{"SMILES": "NC(=O)NO", "cell line": "H9", "tested at": "200 µM", "result": "72.8%"}
{"SMILES": "Nc1ccn([C@H]2C=C[C@@H](CO)O2)c(=O)n1", "cell line": "MT-2", "tested at": "1 µM", "strain or isolate": "LAV", "result": "92%"}
{"SMILES": "O=C(C(=O)N1CCN(C(=O)c2ccccc2)CC1)c1c[nH]c2cc(Cl)ccc12", "cell line": "MT-2", "tested at": "10 µM", "strain or isolate": "BRU", "result": "95.6%"}
{"SMILES": "Cc1nc(NC(=O)NCCc2ccccc2)sc1C", "cell line": "MT-4", "tested at": "100 µg/mL", "result": "94%"}
{"SMILES": "O=C(C(=O)N1CCN(C(=O)c2ccccc2)CC1)c1c[nH]c2c(Cl)cccc12", "cell line": "MT-2", "tested at": "10 µM", "strain or isolate": "BRU", "result": ">98%"}
{"SMILES": "O=C(NCCc1ccccc1)Nc1nc2ccc(F)cc2s1", "cell line": "MT-4", "tested at": "100 µg/mL", "result": "95%"}
{"SMILES": "CC(C)(C)NC(=O)[C@@H]1CCCN1C(=O)[C@@H](O)[C@H](Cc1ccccc1)NC(=O)[C@H](CC(N)=O)NC(=O)OCc1ccccc1", "changes": "PR-I84V", "cell line": "MOLT-4", "tested at": "5 µM", "strain or isolate": "pNL432(PR-I84V)", "result": "0%"}
{"SMILES": "Cc1ccc(C(=O)N2CCN(C(=O)C(=O)c3c[nH]c4ccccc34)CC2)cc1F", "cell line": "MT-2", "tested at": "10 µM", "strain or isolate": "BRU", "result": "23.4%"}
{"SMILES": "Cc1cn([C@H]2C[C@H](N=[N+]=[N-])[C@@H](COP(=O)(O)OCCO[C@H]3O[C@H](CO)[C@@H](O)[C@H](O)[C@@H]3O)O2)c(=O)[nH]c1=O", "cell line": "CEM", "tested at": "0.2 µM", "conditions": "22 d", "strain or isolate": "LAV-Bru", "result": "0%"}
{"SMILES": "O=C(NCCc1ccccc1)Nc1nc(C(F)(F)F)cs1", "cell line": "MT-4", "tested at": "0.1 µg/mL", "result": "98%"}
{"SMILES": "CCCCCCCCCCCCCCCCOP(=O)(OC[C@H]1OC(O)[C@@H](O)[C@@H](O)[C@@H]1O)OC[C@H]1O[C@@H](n2cc(C)c(=O)[nH]c2=O)C[C@@H]1N=[N+]=[N-]", "cell line": "CEM", "tested at": "0.2 µM", "conditions": "15 d", "strain or isolate": "LAV-Bru", "result": "91%"}
{"SMILES": "COc1c(C)c2c(c(O)c1C/C=C(\\C)CCC(=O)O)C(=O)OC2", "cell line": "PBL(CD4+) + PBL", "tested at": "1 µM", "strain or isolate": "SF162", "result": "92%"}
{"SMILES": "CC(C)[C@H](NC(=O)[C@H](Cc1ccccc1)C[C@H](O)[C@H](Cc1ccccc1)NC(=O)OC(C)(C)C)C(=O)N[C@@H](Cc1ccccc1)C(=O)N1CCOCC1", "cell line": "MT-2", "tested at": "0.1 µM", "strain or isolate": "pLAI", "result": "90%"}
{"SMILES": "CCc1cccc2c(C(=O)C(=O)N3CCN(C(=O)c4ccccc4)CC3)c[nH]c12", "cell line": "MT-2", "tested at": "10 µM", "result": ">98%"}